T1: Cpa (phospholipase) (Clostridium perfringens, UniProt P0C216 29-398)
T1 sequence: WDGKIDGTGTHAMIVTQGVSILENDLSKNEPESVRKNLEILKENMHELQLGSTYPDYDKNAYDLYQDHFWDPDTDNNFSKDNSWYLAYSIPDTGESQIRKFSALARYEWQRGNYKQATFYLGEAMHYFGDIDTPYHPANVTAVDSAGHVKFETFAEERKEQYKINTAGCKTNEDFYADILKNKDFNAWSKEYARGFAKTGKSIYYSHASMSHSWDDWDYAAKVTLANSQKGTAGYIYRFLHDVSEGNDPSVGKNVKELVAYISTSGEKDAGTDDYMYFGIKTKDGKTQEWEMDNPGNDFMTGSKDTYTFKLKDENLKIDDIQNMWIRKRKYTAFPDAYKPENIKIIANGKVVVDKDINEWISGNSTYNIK


Molecular target: T1, Cpa (phospholipase)
Assay: cell-based or functional assay

Binder	Cpa lecithinase activity reduced by >40% at 1 µM [%]
NBX0338 (VHH) VHH: QVQLQESGGGLVQAGDSLRLSCATSGRSFSSYTMGWFRQTPGKEREFVAAISWSGTYYTDSVKGRFTISRDNAKNTVYLQMNSLKPEDTAVYYCAVGSRRLYYSSDINYWGQGTQVTVSS	> 40
NBX0329 (VHH) VHH: QVQLQESGGGLVQAGGSLRLSCATSGLTVSRYTMGWFRQTPGKDREFVAAISWSGTYYTDSVKGRFTISVDNAKNMVYLQMNSLKPEDTAVYYCAAGSRRLYYSNDINYWGQGTQVTVSS	> 40
NBX0339 (VHH) VHH: QVQLQESGGGLVQAGDSLRLSCATSGLTVSRYTMGWFRQTPGKEREFVAAISWSGTYYTDSVKGRFTISRDNAKNMVYLQMNSLKPEDTAVYYCAAGSRRLHYSSDINYWGQGTQVTVSS	> 40
NBX0330 (VHH) VHH: QVQLQESGGGLVQAGGSLRLSCAASSRTFSNYAMAWFRQTPGKEREFLATINGDTTFTIYADSVKGRFTISRDNAKNTLYLQMNSLKAEDTAVYYCAARQWNPTMRERDYGYWGQGTEVTVSS	≤ 40
NBX0340 (VHH) VHH: QVQLQESGGGLVQAGESLRLSCLAAGRTFSTSTLGWFRQAPGLEREFVAAIRYTSDYTARTTDYADSVKGRFAISRDYIKQAVYLQMNNLKPEDTAVYYCAAAKYGMGYSDPSGYTYWGQGTQVTVSS	≤ 40

— patent US20210269512A1 (NOVOBIND LIVESTOCK THERAPEUTICS, published 2021)
